Results of unrelated studies side by side (data: NIAID ChemDB).

Shared fields: whole-cell or culture tests; organism: HIV-1

An empty or dashed field is not shown. Neighbouring rows are from separate reports. ECn is the concentration giving n% inhibition of infection, replication or growth.

structure	read by	cell line	strain	endpoint	changes	result
Cc1ccc(-c2c([C@H](CC(C)C)C(=O)O)n(C)c(=O)c3ccccc23)c(C)c1	luciferase	MT-4		EC50		11.1 µM
Nc1ncnc2c1ncn2CCOCP(=O)(O)O	syncytia	CEM	Clinical isolate C19	EC50	RT-M41L V118I L210W T215Y	25 µg/mL
COc1ccc(OC[C@@H]2CNCC[C@H]2c2ccc(F)cc2)cc1	syncytia	MOLT-3	IIIB	EC50		>4 µg/mL
Cc1ccc(Sc2c(C(C)C)c(CO)cn2Cc2ccncc2)cc1	cytopathic effect / MTT	MT-4	IIIB	EC50		53 µM
COc1ccc(S(=O)(=O)N(CC(C)C)C[C@@H](O)[C@H](Cc2ccccc2)NC(=O)O[C@H]2CCO[C@H]3OC[C@H](O)[C@H]32)cc1	p24 / luminescence	MT-4	NL4-3	EC50	L10I I54V K20R L24I V32I L33F M36I M46I I54M L63P K70Q V82I I84V L89M	0.581 µM
CC(C)(C)NC(=O)c1ccccc1C[C@@H](O)[C@H](CSc1ccc2ccccc2c1)NC(=O)c1cccc2ncccc12	cytopathic effect	CEM		EC50		5.7 µg/mL
Cc1nn(-c2ccccc2)c2c1nnn2Cc1ccccc1	cytopathic effect / MTT	MT-4		EC50		>114 µM
CC(=O)O[C@@]12C[C@@H](C)[C@@]3(O)[C@@H](C=C(CO)C[C@]4(O)C(=O)C(C)=C[C@@H]34)[C@@H]1C2(C)C	cytopathic effect / MTT	MT-4	NL4-3	EC50		0.16 µg/mL
CCn1nnc2c(C)nn(C)c21	cytopathic effect / MTT	MT-4		EC50		>200 µM
c1cc(CN2CCCNCCNCCCNCC2)ccc1CN1CCCNCCNCCCNCC1	cytopathic effect / MTT	MT-4	NL4 Aco-HSA-resistant	EC50		0.01 µg/mL
Cc1cc(NCc2cccc3ccccc23)c(C(=O)C(Cl)Cl)c(=O)o1	MTT	CEM	IIIB	EC50		>2 µM
O=C1N(Cc2cccc(-c3ccn[nH]3)c2)[C@H](Cc2ccc(OCc3ccncc3)cc2)[C@H](O)[C@@H](O)[C@@H](Cc2ccc(OCc3ccncc3)cc2)N1Cc1cccc(-c2ccn[nH]2)c1	hybridisation	MT-2	RF	EC50		<0.018 µM
CN(C)CCC=C1c2ccccc2CCc2ccccc21	syncytia	MOLT-3	IIIB	EC50		>10 µg/mL
Cc1ccc(N)cc1C(=O)N[C@@H](CSc1ccc2ccccc2c1)[C@H](O)Cc1ccccc1C(=O)NC(C)(C)C	cytopathic effect	CEM		EC50		1.3 µg/mL
Cc1cn([C@H]2C[C@H](N=[N+]=[N-])[C@@H](CO)O2)c(=O)[nH]c1=O	RT activity	CEM + CEM-SS		EC50		0.5 µM
O=C1N(Cc2ccccc2)[C@H](Cc2ccc(OCCO)cc2)[C@H](O)[C@@H](O)[C@@H](Cc2ccc(OCCO)cc2)N1Cc1ccccc1	hybridisation	MT-2	RF	EC50		<0.078 µM
COc1ccc(OC[C@H]2CN(C)CC[C@@H]2c2ccccc2)cc1	p24	MOLT-3	IIIB	EC50		>4 µg/mL
CN[C@H]1CO[C@@H]2OCC[C@H](OC(=O)N[C@@H](Cc3cccc(OC)c3)[C@H](O)CN(CC(C)C)S(=O)(=O)c3ccc4nc(NC(C)C)sc4c3)[C@@H]21	p24 / luminescence	MT-4	NL4-3	EC50	L10F L33I M36I M46I I54V K55R I62V L63P A71V G73S V82T	0.0032 µM
Cc1cn([C@H]2C[C@H](N=[N+]=[N-])[C@@H](CO)O2)c(=O)[nH]c1=O	p24	PBMC	BaL	EC50		0.004 µM
Cc1cn([C@H]2C[C@@H](OCP(=O)(O)O)CO2)c(=O)[nH]c1=O	cytopathic effect	MT-4	IIIB	EC50		6.59 µM
Cc1ccc(C(=O)Nc2ccc(S(=O)(=O)O)c3cc(S(=O)(=O)O)cc(S(=O)(=O)O)c23)cc1NC(=O)c1cccc(NC(=O)Nc2cccc(C(=O)Nc3cc(C(=O)Nc4ccc(S(=O)(=O)O)c5cc(S(=O)(=O)O)cc(S(=O)(=O)O)c45)ccc3C)c2)c1	plaque count	MT-4	HTLV-III	EC50		<25 µg/mL
Cc1cn([C@H]2C[C@H](N=[N+]=[N-])[C@@H](CO)O2)c(=O)[nH]c1=O	MTT / p24	MT-2	G910-6	EC50		1.7 µg/mL
Cc1nn(C)c2c1nnn2Cc1ccccc1	cytopathic effect / MTT	MT-4		EC50		>200 µM
CCOP(=O)(OCC)C(F)(F)C[C@@]1(O)CO[C@@H](n2ccc(N)nc2=O)C1	MTT	MT-4		EC50		11.2 µM
Cc1ccnc2c1NC(=O)c1cccnc1N2C1CC1		MT-4		EC95	RT-K70R L100I	1.5 µM
O=c1ccn([C@@H]2OC[C@H](OCP(=O)(O)O)[C@H]2O)c(=O)[nH]1	cytopathic effect	MT-4	IIIB	EC50		>155 µM
Cc1ccc(Sc2c(C(C)C)c(COC(N)=O)cn2Cc2ccncc2)cc1	cytopathic effect / MTT	MT-4	IIIB	EC50		42 µM
COc1ccc(OC[C@@H]2CNCC[C@H]2c2ccccc2)cc1	p24	MOLT-3	IIIB	EC50		>4 µg/mL
CCOC(=O)c1cn(Cc2ccncc2)c(Sc2cc(C)cc(C)c2)c1C(C)C	cytopathic effect / MTT	MT-4	IIIB	EC50		10 µM
Nc1ncnc2c1ncn2CCOCP(=O)(O)O	MTT	MT-4		EC50		0.28 µM
Cc1cc(NCCc2c[nH]c3ccccc23)cc(=O)o1	MTT	CEM	IIIB	EC50		25 µM
O=[N+]([O-])c1ccc(/C=N/Nc2ccnc3c(C(F)(F)F)cc(Cl)cc23)o1	cytopathic effect	CEM		EC50		0.01 µg/mL
Cc1cn([C@H]2C[C@H](N=[N+]=[N-])[C@@H](COC(=O)c3ccncc3)O2)c(=O)[nH]c1=O	p24	MT-4	IIIB	EC50		0.007 µM
CCCCCN1CC[C@@H](c2ccc(F)cc2)[C@H](COc2ccc3c(c2)OCCO3)C1	syncytia	MOLT-3	IIIB	EC50		>4 µg/mL
Nc1nc2c(ncn2CCOCP(=O)(O)O)c(=O)[nH]1	cytopathic effect / MTT	MT-4		EC50		0.19 µM
CCc1c(SCc2cccc3ccccc23)cc(C)oc1=O	MTT	CEM	IIIB	EC50		>10 µM
Nc1ccn([C@@H]2OC[C@H](OCP(=O)(O)O)[C@H]2O)c(=O)n1	cytopathic effect	MT-4	IIIB	EC50		>308 µM
Cc1cc(N[C@@H](C)c2cccc3ccccc23)cc(=O)o1	MTT	CEM	IIIB	EC50		>10 µM
CCOC(=O)c1cn(Cc2ccc([N+](=O)[O-])cc2)c(Sc2cc(Cl)cc(Cl)c2)c1C(C)C	cytopathic effect / MTT	MT-4	IIIB	EC50		>200 µM
CCOP(=O)(OCC)C(F)(F)C[C@@]1(O)CO[C@@H](n2cnc3c(N)ncnc32)C1	MTT	MT-4		EC50		67.5 µM
Cc1cc(N[C@@H](C)c2cccc3ccccc23)c(C(=O)C(Cl)Cl)c(=O)o1	MTT	CEM	IIIB	EC50		>2 µM
O=C1N(Cc2cccc(-c3ccn[nH]3)c2)[C@H](Cc2ccc(OCCO)cc2)[C@H](O)[C@@H](O)[C@@H](Cc2ccc(OCCO)cc2)N1Cc1cccc(-c2ccn[nH]2)c1	hybridisation	MT-2	RF	EC50		<0.462 µM
Nc1ncnc2c1nnn2CCOCP(=O)(O)O	cytopathic effect / MTT	MT-4		EC50		94 µM
CCN1C[C@H]2C[C@H](OC)c3c(C(=O)NCc4ccc(F)cc4F)c(=O)c(O)c(n32)C1=O	GFP	MT-4	NL4-3	EC50		0.0023 µM
CCOC(=O)c1cn(Cc2ccncc2)c(Sc2ccc(C)cc2)c1C(C)C	cytopathic effect / MTT	MT-4	IIIB	EC50		>60 µM
CCOP(=O)(O)COCCn1nnc2c(N)ncnc21	cytopathic effect / MTT	MT-4		EC50		>331 µM
CCOC(=O)c1cn(Cc2ccccn2)c(Sc2cc(Cl)cc(Cl)c2)c1C(C)C	cytopathic effect / MTT	MT-4	IIIB	EC50		>200 µM
CCN[C@H]1CO[C@@H]2OCC[C@H](OC(=O)N[C@@H](Cc3cccc(OC)c3)[C@H](O)CN(CC(C)C)S(=O)(=O)c3ccc4nc(NC(C)C)sc4c3)[C@@H]21	p24 / luminescence	MT-4	NL4-3	EC50		0.0027 µM
Cc1nn(-c2ccccc2)c2nn(N)nc12	cytopathic effect / MTT	MT-4		EC50		>154 µM
Nc1nc2nn(CCOCP(=O)(O)O)nc2c(=O)[nH]1	cytopathic effect / MTT	MT-4		EC50		>315 µM
CCOP(=O)(OCC)C(F)(F)C[C@@]1(O)CO[C@@H](n2cnc3c(Cl)nc(N)nc32)C1	MTT	MT-4		EC50		90 µM
Nc1ncnc2c1ncn2[C@@H]1OC[C@H](OCP(=O)(O)O)[C@H]1O	cytopathic effect	MT-4	IIIB	EC50		>268 µM
c1ccc(CNCc2ccc(CN3CCNCCc4cccc(n4)CCNCC3)cc2)nc1	MTT	MT-4	IIIB	EC50		0.001 µM
Cc1cc(NCCc2cccc3ccccc23)cc(=O)o1	MTT	CEM	IIIB	EC50		>10 µM
Nc1ncnc2c1ncn2[C@H]1C[C@]2(CO1)CC(F)(F)P(=O)(O)O2	MTT	MT-4		EC50		83.5 µM
C[C@H](COc1cc(N)nc(N)n1)OCP(=O)(O)O	syncytia	CEM	Clinical isolate HA20.17	EC50	RT-A62V V75I F77L Q151M M184V	4.35 µg/mL
O=c1[nH]cnc2c1ncn2[C@H]1CC[C@@H](CO)O1	p24	MT-4	XM-T69SSS	EC50	RT-T69SSS L210W T215Y	<8.8 µM
CN1CC[C@H](c2ccccc2)[C@@H](COc2ccc3c(c2)OCCO3)C1	p24	MOLT-3	IIIB	EC50		>4 µg/mL
CN[C@H]1CO[C@@H]2OCC[C@H](OC(=O)N[C@@H](Cc3ccccc3)[C@H](O)CN(CC(C)C)S(=O)(=O)c3ccc4nc(NC5CC5)sc4c3)[C@@H]21	p24 / luminescence	MT-4	NL4-3	EC50	L10I I15V K20R L24I V32I M36I M46I L63P K70Q V82A I84V L89M	0.0027 µM
Cc1c(C(=O)N[C@@H](CSc2ccc3ccccc3c2)[C@H](O)Cc2ccccc2C(=O)NC(C)(C)C)cccc1[N+](=O)[O-]	cytopathic effect	CEM		EC50		>50 µg/mL
O=C1N(Cc2ccccc2)[C@H](Cc2ccc(OCCN3CCOCC3)cc2)[C@H](O)[C@@H](O)[C@@H](Cc2ccc(OCCN3CCOCC3)cc2)N1Cc1ccccc1	hybridisation	MT-2	RF	EC50		<0.23 µM
O=c1ccn([C@H]2C[C@@H](OCP(=O)(O)O)CO2)c(=O)[nH]1	cytopathic effect	MT-4	IIIB	EC50		>336 µM
Cc1cn([C@H]2C[C@H](N=[N+]=[N-])[C@@H](CO)O2)c(=O)[nH]c1=O	p24	PBMC	JR-CSF	EC90		0.019 µM
CC(C)(C)NC(=O)c1ccccc1C[C@@H](O)[C@H](CSc1ccc2ccccc2c1)NC(=O)c1cccc2c1CCN2	cytopathic effect	CEM		EC50		>50 µg/mL
COc1ccc(C[C@@H]2[C@H](O)[C@@H](O)[C@@H](Cc3ccc(OC)cc3)N(Cc3cccc(-c4ccn[nH]4)c3)C(=O)N2Cc2cccc(-c3ccn[nH]3)c2)cc1	hybridisation	MT-2	RF	EC50		<0.01 µM
Nc1ccn([C@H]2C[C@]3(CO2)CC(F)(F)P(=O)(O)O3)c(=O)n1	MTT	MT-4		EC50		15.5 µM
Cc1nn(-c2ccccc2)c2nc(NC(C)(C)C)oc12	cytopathic effect / MTT	MT-4		EC50		>18 µM
CC(C)c1c(CO)cn(Cc2ccncc2)c1Sc1cc(Cl)cc(Cl)c1	cytopathic effect / MTT	MT-4	IIIB	EC50		0.003 µM
Nc1cc(OCCOCP(=O)(O)O)nc(N)n1	syncytia	CEM	Clinical isolate DE434.4	EC50	RT-K65R S68G T69I V75T Q151M	7.5 µg/mL
Cc1ccnc2c1NC(=O)c1cccnc1N2C1CC1	MTT	CEM	IIIB	EC50		0.17 µM

The last 4 rows once more:

structure,read by,cell line,strain,endpoint,changes,result
Cc1nn(-c2ccccc2)c2nc(NC(C)(C)C)oc12,cytopathic effect / MTT,MT-4,,EC50,,>18 µM
CC(C)c1c(CO)cn(Cc2ccncc2)c1Sc1cc(Cl)cc(Cl)c1,cytopathic effect / MTT,MT-4,IIIB,EC50,,0.003 µM
Nc1cc(OCCOCP(=O)(O)O)nc(N)n1,syncytia,CEM,Clinical isolate DE434.4,EC50,RT-K65R S68G T69I V75T Q151M,7.5 µg/mL
Cc1ccnc2c1NC(=O)c1cccnc1N2C1CC1,MTT,CEM,IIIB,EC50,,0.17 µM